This is an account of results in patent publication US20220380347A1.

The chains behind the UniProt entries cited, without tags or fusion partners. Residues count along the entry.
UniProt P0C6X1, 2966-3267 limits assumed: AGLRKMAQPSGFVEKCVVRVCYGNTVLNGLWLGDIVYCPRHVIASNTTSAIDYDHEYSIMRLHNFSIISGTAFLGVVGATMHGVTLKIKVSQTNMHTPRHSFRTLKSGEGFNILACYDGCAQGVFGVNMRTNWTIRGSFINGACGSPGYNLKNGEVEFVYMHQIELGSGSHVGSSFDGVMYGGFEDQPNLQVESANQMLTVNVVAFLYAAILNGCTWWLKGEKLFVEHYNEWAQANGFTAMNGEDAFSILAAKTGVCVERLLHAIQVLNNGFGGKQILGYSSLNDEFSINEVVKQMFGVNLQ

Assay [1] has as its target 229E Mpro (Human coronavirus 229E, UniProt P0C6X1). Briefly: 229E Mpro enzymatic assay. The settings on record: read-out: 229E Mpro EC50.
In assay [2] the test system is HCov OC43. To be noted: read-out: OC43 IC50 (uM) MEDIAN.

Bounds are passed on as bounds.

What is called EC50 is the midpoint of the concentration-response curve. By IC50 is commonly meant the midpoint of a concentration-inhibition curve. Regarding `CC(C)(C)c1ccc(N(C(=O)[C@H]2CCCN2C#N)C(C(=O)N2CCCC2)c2cccnc2)cc1` (single isomer, unassigned) [947 Isomer 2], in assay [1], the EC50 lay within 2000 to 10000 nM. In assay [2], the IC50 was above 30 µM.

Turning to `CC(C)(C)OC(=O)NC1CN(C(=O)C(c2cccnc2)N(C(=O)[C@H]2CCCN2C#N)c2ccc(C(C)(C)C)cc2)C1` (single isomer, unassigned) [948 Isomer 1], in assay [1], the EC50 was 2000 to 10000 nM. Besides, in assay [2], the half-inhibitory concentration (IC50) lay within 2 to 10 µM.

With `CC(C)(C)OC(=O)NC1CN(C(=O)C(c2cccnc2)N(C(=O)[C@H]2CCCN2C#N)c2ccc(C(C)(C)C)cc2)C1` (single isomer, unassigned) [948 Isomer 2], the EC50 in assay [1] was 2000 to 10000 nM. Moreover, the IC50 in assay [2] is above 30 µM.

As for `CC(C)(C)c1ccc(N(C(=O)[C@H]2CCCN2C#N)C(C(=O)N2CC[C@H](O)C2)c2cccnc2)cc1` (single isomer, unassigned) [957 Isomer 1], the EC50 in assay [1] was 2000 to 10000 nM. Moreover, the IC50 in assay [2] is 10 to 30 µM.

For the compound `CC(C)(C)c1ccc(N(C(=O)[C@H]2CCCN2C#N)C(C(=O)N2CC[C@H](O)C2)c2cccnc2)cc1` (single isomer, unassigned) [957 Isomer 2], the EC50 in assay [1] was in the range of 10000 to 30000 nM. In addition, the IC50 in assay [2] is above 30 µM.

With `Cc1[nH]ncc1C(C(=O)NC1CCC(F)(F)CC1)N(C(=O)[C@H]1C[C@@](C)(O)CN1C#N)c1ccc(S(F)(F)(F)(F)F)cc1` (single isomer, unassigned) [1007c Isomer 1], in assay [1], the EC50 was below 2000 nM. The IC50 in assay [2] fell in the range of 2 to 10 µM.

Regarding `Cc1[nH]ncc1C(C(=O)NC1CCC(F)(F)CC1)N(C(=O)[C@H]1C[C@@](C)(O)CN1C#N)c1ccc(S(F)(F)(F)(F)F)cc1` (single isomer, unassigned) [1007c Isomer 2], the EC50 in assay [1] was below 2000 nM. In addition, in assay [2], the IC50 lay in the range of 2 to 10 µM.

In the case of `N#CN1C[C@H](OC(F)F)C[C@@H]1C(=O)N(c1ccc(S(F)(F)(F)(F)F)cc1)C(C(=O)NC1CCC(F)(F)CC1)c1cncc(F)c1` (single isomer, unassigned) [1088 Isomer 1], the EC50 in assay [1] was below 2000 nM. For the same compound, the IC50 in assay [2] is below 2 µM.

`N#CN1C[C@H](OC(F)F)C[C@@H]1C(=O)N(c1ccc(S(F)(F)(F)(F)F)cc1)C(C(=O)NC1CCC(F)(F)CC1)c1cncc(F)c1` (single isomer, unassigned) [1088 Isomer 2]: the EC50 in assay [1] is below 2000 nM. The IC50 in assay [2] lay within 2 to 10 µM.

With `N#CN1CC[C@@H](F)[C@@H]1C(=O)N(c1ccc(S(F)(F)(F)(F)F)cc1)C(C(=O)NC1CCC(F)(F)CC1)c1cncc(F)c1` (single isomer, unassigned) [1092 Isomer 1], the EC50 in assay [1] is below 2000 nM. For the same compound, the IC50 in assay [2] was below 2 µM.

Turning to `N#CN1CC[C@@H](F)[C@@H]1C(=O)N(c1ccc(S(F)(F)(F)(F)F)cc1)C(C(=O)NC1CCC(F)(F)CC1)c1cncc(F)c1` (single isomer, unassigned) [1092 Isomer 2], the EC50 in assay [1] was below 2000 nM. Moreover, the IC50 in assay [2] fell in the range of 2 to 10 µM.

`N#CN1C[C@@H]2CC[C@@H]2[C@@H]1C(=O)N(c1ccc(S(F)(F)(F)(F)F)cc1)C(C(=O)NC1CCC(F)(F)CC1)c1cncc(F)c1` (single isomer, unassigned) [1097 Isomer 1.1]: the EC50 in assay [1] is below 2000 nM. In addition, the IC50 in assay [2] was below 2 µM.

For `N#CN1C[C@@H]2CC[C@@H]2[C@@H]1C(=O)N(c1ccc(S(F)(F)(F)(F)F)cc1)C(C(=O)NC1CCC(F)(F)CC1)c1cncc(F)c1` (single isomer, unassigned) [1097 Isomer 1.2], the EC50 in assay [1] is above 30000 nM. Besides, in assay [2], the IC50 is above 30 µM.

For the compound `N#CN1C[C@@H]2CC[C@@H]2[C@@H]1C(=O)N(c1ccc(S(F)(F)(F)(F)F)cc1)C(C(=O)NC1CCC(F)(F)CC1)c1cncc(F)c1` (single isomer, unassigned) [1097 Isomer 2.1], the EC50 in assay [1] is 2000 to 10000 nM. Further, the IC50 in assay [2] was 10 to 30 µM.

Take `N#CN1C[C@@H]2CC[C@@H]2[C@@H]1C(=O)N(c1ccc(S(F)(F)(F)(F)F)cc1)C(C(=O)NC1CCC(F)(F)CC1)c1cncc(F)c1` (single isomer, unassigned) [1097 Isomer 2.2]: the EC50 in assay [1] is 2000 to 10000 nM. Further, in assay [2], the IC50 lay in the range of 10 to 30 µM.

In the case of `CC(C)(C)c1ccc(N(C(=O)[C@H]2CCCN2C#N)C(C(=O)N[C@H]2C[C@@](C)(O)C2)c2cccnc2)cc1` (single isomer, unassigned) [1120 Isomer 1], the EC50 in assay [1] was below 2000 nM. In assay [2], the IC50 is 2 to 10 µM.

As for `CC(C)(C)c1ccc(N(C(=O)[C@H]2CCCN2C#N)C(C(=O)N[C@H]2C[C@@](C)(O)C2)c2cccnc2)cc1` (single isomer, unassigned) [1120 Isomer 2], the EC50 in assay [1] is below 2000 nM. Moreover, the IC50 in assay [2] is 10 to 30 µM.

On to `CO[C@@H]1C[C@H](C(=O)N(c2ccc(S(F)(F)(F)(F)F)cc2)C(C(=O)NCCC2CCCCN2C(=O)OC(C)(C)C)c2cccnc2)N(C#N)C1` (single isomer, unassigned) [1121b Isomer 1], for which, in assay [1], the EC50 is 2000 to 10000 nM. For the same compound, the IC50 in assay [2] is above 30 µM.

`CO[C@@H]1C[C@H](C(=O)N(c2ccc(S(F)(F)(F)(F)F)cc2)C(C(=O)NCCC2CCCCN2C(=O)OC(C)(C)C)c2cccnc2)N(C#N)C1` (single isomer, unassigned) [1121b Isomer 2]: the EC50 in assay [1] was below 2000 nM. Further, the IC50 in assay [2] lay in the range of 2 to 10 µM.

For the compound `CC1(C)CNc2cc(N(C(=O)[C@H]3C[C@@](C)(O)CN3C#N)C(C(=O)NC3CCC(F)(F)CC3)c3cncc(F)c3)ccc21` (single isomer, unassigned) [1131 Isomer 1], the EC50 in assay [1] is below 2000 nM. Moreover, in assay [2], the IC50 was below 2 µM.

On to `CC1(C)CNc2cc(N(C(=O)[C@H]3C[C@@](C)(O)CN3C#N)C(C(=O)NC3CCC(F)(F)CC3)c3cncc(F)c3)ccc21` (single isomer, unassigned) [1131 Isomer 2], for which the EC50 in assay [1] is below 2000 nM. In assay [2], the IC50 fell in the range of 2 to 10 µM.

Regarding `CO[C@@H]1C[C@H](C(=O)N(c2ccc(C(C)(C)C)cc2)C(C(=O)NC2CCOCC2)c2cccnc2)N(C#N)C1` (single isomer, unassigned) [1140 Isomer 1], in assay [1], the EC50 is below 2000 nM. In addition, in assay [2], the IC50 was below 2 µM.

For the compound `CO[C@@H]1C[C@H](C(=O)N(c2ccc(C(C)(C)C)cc2)C(C(=O)NC2CCOCC2)c2cccnc2)N(C#N)C1` (single isomer, unassigned) [1140 Isomer 2], the EC50 in assay [1] is below 2000 nM. Besides, the IC50 in assay [2] was in the range of 2 to 10 µM.

Take `CO[C@@H]1C[C@H](C(=O)N(c2ccc(S(F)(F)(F)(F)F)cc2)C(C(=O)NC2CCC(F)(F)CC2)c2cccnc2)N(C#N)C1` (single isomer, unassigned) [1154 Isomer 1]: the EC50 in assay [1] is below 2000 nM. Also, the IC50 in assay [2] is 2 to 10 µM.

As for `CO[C@@H]1C[C@H](C(=O)N(c2ccc(S(F)(F)(F)(F)F)cc2)C(C(=O)NC2CCC(F)(F)CC2)c2cccnc2)N(C#N)C1` (single isomer, unassigned) [1154 Isomer 2], the EC50 in assay [1] is below 2000 nM. The IC50 in assay [2] was below 2 µM.

Regarding `CC1(C)CN(C#N)[C@@H](C(=O)N(c2ccc(S(F)(F)(F)(F)F)cc2)C(C(=O)NC2CCC(F)(F)CC2)c2cccnc2)CO1` (single isomer, unassigned) [1163 Isomer 1], the EC50 in assay [1] was below 2000 nM. In addition, in assay [2], the IC50 fell in the range of 10 to 30 µM.

On to `CC1(C)CN(C#N)[C@@H](C(=O)N(c2ccc(S(F)(F)(F)(F)F)cc2)C(C(=O)NC2CCC(F)(F)CC2)c2cccnc2)CO1` (single isomer, unassigned) [1163 Isomer 2], for which, in assay [1], the EC50 is below 2000 nM. Moreover, in assay [2], the IC50 was below 2 µM.

Consider `CO[C@@H]1C[C@H](C(=O)N(c2ccc(S(F)(F)(F)(F)F)cc2)C(C(=O)N2CCC3(COC3)C2)c2cccnc2)N(C#N)C1` (single isomer, unassigned) [1174 Isomer 1], for which the concentration giving a half-maximal response (EC50) in assay [1] was below 2000 nM. Besides, in assay [2], the IC50 was below 2 µM.

On to `CO[C@@H]1C[C@H](C(=O)N(c2ccc(S(F)(F)(F)(F)F)cc2)C(C(=O)N2CCC3(COC3)C2)c2cccnc2)N(C#N)C1` (single isomer, unassigned) [1174 Isomer 2], for which the concentration for a half-maximal effect (EC50) in assay [1] is below 2000 nM. The IC50 in assay [2] was in the range of 10 to 30 µM.

Regarding `CO[C@@H]1C[C@H](C(=O)N(c2ccc(S(F)(F)(F)(F)F)cc2)C(C(=O)N[C@H]2C[C@@](C)(O)C2)c2cccnc2)N(C#N)C1` (single isomer, unassigned) [1195 Isomer 1], the EC50 in assay [1] was below 2000 nM. The IC50 in assay [2] was below 2 µM.

For the compound `CO[C@@H]1C[C@H](C(=O)N(c2ccc(S(F)(F)(F)(F)F)cc2)C(C(=O)N[C@H]2C[C@@](C)(O)C2)c2cccnc2)N(C#N)C1` (single isomer, unassigned) [1195 Isomer 2], the EC50 in assay [1] is below 2000 nM. Also, the IC50 in assay [2] was below 2 µM.

As to `CO[C@@H]1C[C@H](C(=O)N(c2ccc(S(F)(F)(F)(F)F)cc2)C(C(=O)NC(C)C2CCN(C(=O)OC(C)(C)C)C2)c2cccnc2)N(C#N)C1` (single isomer, unassigned) [1293 Isomer 1], in assay [1], the EC50 was below 2000 nM. The IC50 in assay [2] lay in the range of 2 to 10 µM.

As for `CO[C@@H]1C[C@H](C(=O)N(c2ccc(S(F)(F)(F)(F)F)cc2)C(C(=O)NC(C)C2CCN(C(=O)OC(C)(C)C)C2)c2cccnc2)N(C#N)C1` (single isomer, unassigned) [1293 Isomer 2], in assay [1], the EC50 was below 2000 nM. Further, the IC50 in assay [2] was below 2 µM.

Take `CO[C@@H]1C[C@H](C(=O)N(c2ccc(S(F)(F)(F)(F)F)cc2)C(C(=O)NC(C)C2CCN(C(=O)OC(C)(C)C)C2)c2cccnc2)N(C#N)C1` (single isomer, unassigned) [1293 Isomer 3]: the EC50 in assay [1] is below 2000 nM. Besides, in assay [2], the IC50 was in the range of 2 to 10 µM.

With `CO[C@@H]1C[C@H](C(=O)N(c2ccc(S(F)(F)(F)(F)F)cc2)C(C(=O)NC(C)C2CCN(C(=O)OC(C)(C)C)C2)c2cccnc2)N(C#N)C1` (single isomer, unassigned) [1293 Isomer 4], in assay [1], the EC50 was below 2000 nM. Besides, the IC50 in assay [2] is 2 to 10 µM.

`CC(C)(C)c1ccc(N(C(=O)[C@H]2COCCN2C#N)C(C(=O)NC2CCC(F)(F)CC2)c2cccnc2)cc1` (single isomer, unassigned) [1297 Isomer 1]: the EC50 in assay [1] is below 2000 nM. In addition, the IC50 in assay [2] is 10 to 30 µM.

In the case of `CC(C)(C)c1ccc(N(C(=O)[C@H]2COCCN2C#N)C(C(=O)NC2CCC(F)(F)CC2)c2cccnc2)cc1` (single isomer, unassigned) [1297 Isomer 2], in assay [1], the EC50 was below 2000 nM. Besides, the IC50 in assay [2] is below 2 µM.
